Biological target: Ectodomain of INFA HA (1-529) - HIV GP160-based SSM (Influenza A)
Assay: ELISA, printed as affinity (FIG. 2)

“Prefusion, stem, specific monoclonal antibody CR8043” was tested, and the Kd was 3.3 nM.

Source: US20220127309A1
